# PSTVd loop 6 mutant pool in Nicotiana benthamiana

The measurements come from Wu et al. 2024 (doi:10.1371/journal.ppat.1012142).

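A pool of all variants was put on leaves of three Nicotiana benthamiana plants. Progeny were sequenced from the inoculated region (day 5), the margin of the inoculated leaf (day 10) and systemic leaves (day 12).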

PSTVd intermediate strain, loop 6: wild type UGACCGCGAG, pool pattern UNNNCGNNNG; upper and lower strand joined, each 5' to 3', the first 5 letters being the upper strand, closing pairs included.

Numbers give reads per thousand; 0 = not seen among the reads, higher = more abundant. Each value is the mean of three plants. "Pool" is the share in the plasmid pool used as inoculum, on the same scale. The inoculated region was read from the minus strand, the other sites from the plus strand. Sequences that differ at fixed positions probably stem from PCR or sequencing errors, and defective variants can be carried along by functional ones. Samples held 36,220 to 57,551 reads, so the smallest values rest on one or two reads. Wild type was 20.7 per thousand in the pool and the most common sequence in every sample (inoculated region 195, 198, 203; leaf margin 629, 591, 734; systemic leaves 942, 870, 868).

* UGACCGACGG (pool 0.288): inoculated region 0.203; leaf margin 0.758; systemic leaves 0.0872
* UGGGCGCAGG (pool 0.157): inoculated region 0.0840; leaf margin 0; systemic leaves 0
* UAAGCGUGUG (pool 0.327): inoculated region 0.124; leaf margin 0; systemic leaves 0
* UGCCCGAUUG (pool 0.340): inoculated region 0.0705; leaf margin 0; systemic leaves 0
* UCACCGAACG (pool 0.157): inoculated region 0.101; leaf margin 0.00773; systemic leaves 0
* UGUACGGAUG (pool 0.196): inoculated region 0.0709; leaf margin 0.0169; systemic leaves 0
* UAAUCGGAAG (pool 0.183): inoculated region 0.639; leaf margin 0.124; systemic leaves 0
* UAUCCGUUAG (pool 0.366): inoculated region 0.101; leaf margin 0.0155; systemic leaves 0
* UUACCGUCGG (pool 0.222): inoculated region 0.0956; leaf margin 0.0169; systemic leaves 0
* UACCCGUAAG (pool 0.105): inoculated region 0.699; leaf margin 0.111; systemic leaves 0
* UUGUCGAUGG (pool 0.379): inoculated region 0.0835; leaf margin 0; systemic leaves 0
* UUCACGUGUG (pool 0.314): inoculated region 0.0948; leaf margin 0.00920; systemic leaves 0
* UUGUCGGGCG (pool 0.405): inoculated region 0.112; leaf margin 0.00920; systemic leaves 0
* UUUACGGUAG (pool 0.340): inoculated region 0.114; leaf margin 0.00920; systemic leaves 0.0329
* UUCGCGUAUG (pool 0.353): inoculated region 0.107; leaf margin 0.0552; systemic leaves 0
* UAGUCGCCUG (pool 0.157): inoculated region 0.0353; leaf margin 0; systemic leaves 0
* UACCCGCUUG (pool 0.261): inoculated region 0.0659; leaf margin 0.00920; systemic leaves 0
* UCCACGCCGG (pool 0.261): inoculated region 0.0950; leaf margin 0; systemic leaves 0
* UCCCCGAUGG (pool 0.248): inoculated region 0.0887; leaf margin 0.109; systemic leaves 0
* UACGCGUCAG (pool 0.235): inoculated region 0.561; leaf margin 0.0844; systemic leaves 0
* UCGGCGGGGG (pool 0.105): inoculated region 0.0890; leaf margin 0.0155; systemic leaves 0
* UCUACGGGGG (pool 0.144): inoculated region 0.0597; leaf margin 0; systemic leaves 0
* UCGUCGAGGG (pool 0.183): inoculated region 0.0903; leaf margin 0.0247; systemic leaves 0
* UAUCCGACUG (pool 0.405): inoculated region 0.0656; leaf margin 0.0155; systemic leaves 0
* UUACCGUAAG (pool 0.118): inoculated region 0.734; leaf margin 0.102; systemic leaves 0
* UCCCCGUCAG (pool 0.458): inoculated region 0.101; leaf margin 0.0252; systemic leaves 0
* UGAGCGUGGG (pool 0.222): inoculated region 0.0898; leaf margin 0; systemic leaves 0
* UAUACGUUCG (pool 0.301): inoculated region 0.166; leaf margin 0.0276; systemic leaves 0
* UCUCCGCAUG (pool 0.105): inoculated region 0.162; leaf margin 0.00773; systemic leaves 0
* UGUACGGAGU (pool 0.0131): inoculated region 0; leaf margin 0; systemic leaves 0
* UGUGCGUUUG (pool 0.379): inoculated region 0.131; leaf margin 0.0324; systemic leaves 0.00684
* UUGGCGUGGG (pool 0.301): inoculated region 0.0845; leaf margin 0; systemic leaves 0
* UGUCCGAAUG (pool 0.340): inoculated region 0.0832; leaf margin 0.0155; systemic leaves 0
* UCCCCGCGGG (pool 0.288): inoculated region 0.0831; leaf margin 0.0345; systemic leaves 0
* UGUGCGCAUG (pool 0.131): inoculated region 0.0947; leaf margin 0.00773; systemic leaves 0
* UCGGCGUUCG (pool 0.248): inoculated region 0.0415; leaf margin 0.0368; systemic leaves 0
* UGGGCGAUUG (pool 0.196): inoculated region 0.114; leaf margin 0.00773; systemic leaves 0
* UGCCCGGCCG (pool 0.0915): inoculated region 0.101; leaf margin 0; systemic leaves 0

The last 2 entries again:

sequence	pool	inoculated region	leaf margin	systemic leaves
UGGGCGAUUG	0.196	0.114	0.00773	0
UGCCCGGCCG	0.0915	0.101	0	0